According to ChEMBL document CHEMBL1145117, “Structures and cytotoxic properties of trichoverroids and their macrolide analogues produced by saltwater culture of Myrothecium verrucaria” (J Med Chem, 2003):

Experiments:
L1210 [1] = assay: Selectivity was evaluated murine tumor against ZL1210 lymphocytic leukemia cell lines- ZCFU-GM normal bone marrow cell lines at a concentration of 0.14 ug/mL; conditions: Mus musculus
MC-38 [2] = assay: Selectivity was evaluated against murine tumor ZC38 colon adenocarcinoma cell lines- ZCFU-GM normal bone marrow cell lines at a concentration of 0.14 ug/mL; conditions: Mus musculus
NCI-H125 [3] = assay: Selectivity was evaluated against human ZH125 lung non small cell carcinoma cell lines-CEM lymphocytic leukemia cell lines at a concentration of 0.14 ug/mL
MC-38 [4] = assay: Selectivity was evaluated against Murine tumor ZC38 colon adenocarcinoma cell lines- ZL1210 lymphocytic leukemia cell lines at a concentration of 0.14 ug/mL; conditions: Mus musculus
colon [5] = assay: Selectivity was evaluated against human ZH116 colon cell lines-CEM lymphocytic leukemia cell lines at a concentration of 0.14 ug/mL
Homo sapiens = species on record: Homo sapiens; assay: Activity relative to compound 3 (set to 1.0) was evaluated against H116 colon tumor cell lines; assay type: functional
Method in brief: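 Disk diffusion soft agar colony formation assay on human H116 colon tumor cells, with 15 µL of sample applied to a disk and zone units read. Relative activity = (dilution required for 500 zone units × 100)/(mg/mL), normalised to a reference compound set at 1.0.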

MC-38 [6] = assay: Selectivity was evaluated against Murine tumor ZC38 colon adenocarcinoma cell lines- ZL1210 lymphocytic leukemia cell lines at a concentration of 8.6 ug/mL; conditions: Mus musculus
L1210 [7] = assay: Selectivity was evaluated murine tumor against ZL1210 lymphocytic leukemia cell lines- ZCFU-GM normal bone marrow cell lines at a concentration of 8.6 ug/mL; conditions: Mus musculus
NCI-H125 [8] = assay: Selectivity was evaluated against human ZH125 lung non small cell carcinoma cell lines-CEM lymphocytic leukemia cell lines at a concentration of 8.6 ug/mL
colon [9] = assay: Selectivity was evaluated against human ZH116 colon cell lines-CEM lymphocytic leukemia cell lines at a concentration of 8.6 ug/mL
MC-38 [10] = assay: Selectivity was evaluated against murine tumor ZC38 colon adenocarcinoma cell lines- ZCFU-GM normal bone marrow cell lines at a concentration of 8.6 ug/mL; conditions: Mus musculus
L1210 [11] = assay: Selectivity was evaluated murine tumor against ZL1210 lymphocytic leukemia cell lines- ZCFU-GM normal bone marrow cell lines at a concentration of 0.90 ug/mL; conditions: Mus musculus
MC-38 [12] = assay: Selectivity was evaluated against Murine tumor ZC38 colon adenocarcinoma cell lines- ZL1210 lymphocytic leukemia cell lines at a concentration of 0.90 ug/mL; conditions: Mus musculus
colon [13] = assay: Selectivity was evaluated against human ZH116 colon cell lines-CEM lymphocytic leukemia cell lines at a concentration of 0.90 ug/mL
NCI-H125 [14] = assay: Selectivity was evaluated against human ZH125 lung non small cell carcinoma cell lines-CEM lymphocytic leukemia cell lines at a concentration of 0.90 ug/mL
MC-38 [15] = assay: Selectivity was evaluated against murine tumor ZC38 colon adenocarcinoma cell lines- ZCFU-GM normal bone marrow cell lines at a concentration of 0.90 ug/mL; conditions: Mus musculus
NCI-H125 [16] = assay: Selectivity was evaluated against human ZH125 lung non small cell carcinoma cell lines-CEM lymphocytic leukemia cell lines at a concentration of 0.78 ug/mL
MC-38 [17] = assay: Selectivity was evaluated against murine tumor ZC38 colon adenocarcinoma cell lines- ZCFU-GM normal bone marrow cell lines at a concentration of 0.78 ug/mL; conditions: Mus musculus
L1210 [18] = assay: Selectivity was evaluated murine tumor against ZL1210 lymphocytic leukemia cell lines- ZCFU-GM normal bone marrow cell lines at a concentration of 0.78 ug/mL; conditions: Mus musculus
MC-38 [19] = assay: Selectivity was evaluated against Murine tumor ZC38 colon adenocarcinoma cell lines- ZL1210 lymphocytic leukemia cell lines at a concentration of 0.78 ug/mL; conditions: Mus musculus
colon [20] = assay: Selectivity was evaluated against human ZH116 colon cell lines-CEM lymphocytic leukemia cell lines at a concentration of 0.78 ug/mL
MC-38 [21] = assay: Selectivity was evaluated against murine tumor ZC38 colon adenocarcinoma cell lines- ZCFU-GM normal bone marrow cell lines at a concentration of 1.3 ug/mL; conditions: Mus musculus
L1210 [22] = assay: Selectivity was evaluated murine tumor against ZL1210 lymphocytic leukemia cell lines- ZCFU-GM normal bone marrow cell lines at a concentration of 1.3 ug/mL; conditions: Mus musculus
MC-38 [23] = assay: Selectivity was evaluated against Murine tumor ZC38 colon adenocarcinoma cell lines- ZL1210 lymphocytic leukemia cell lines at a concentration of 1.3 ug/mL; conditions: Mus musculus
colon [24] = assay: Selectivity was evaluated against human ZH116 colon cell lines-CEM lymphocytic leukemia cell lines at a concentration of 1.3 ug/mL
NCI-H125 [25] = assay: Selectivity was evaluated against human ZH125 lung non small cell carcinoma cell lines-CEM lymphocytic leukemia cell lines at a concentration of 1.3 ug/mL
L1210 [26] = assay: Selectivity was evaluated murine tumor against ZL1210 lymphocytic leukemia cell lines- ZCFU-GM normal bone marrow cell lines at a concentration of 41 ug/mL; conditions: Mus musculus
MC-38 [27] = assay: Selectivity was evaluated against murine tumor ZC38 colon adenocarcinoma cell lines- ZCFU-GM normal bone marrow cell lines at a concentration of 41 ug/mL; conditions: Mus musculus
NCI-H125 [28] = assay: Selectivity was evaluated against human ZH125 lung non small cell carcinoma cell lines-CEM lymphocytic leukemia cell lines at a concentration of 41 ug/mL
colon [29] = assay: Selectivity was evaluated against human ZH116 colon cell lines-CEM lymphocytic leukemia cell lines at a concentration of 41 ug/mL
MC-38 [30] = assay: Selectivity was evaluated against murine tumor ZC38 colon adenocarcinoma cell lines- ZCFU-GM normal bone marrow cell lines at a concentration of 163 ug/mL; conditions: Mus musculus
colon [31] = assay: Selectivity was evaluated against human ZH116 colon cell lines-CEM lymphocytic leukemia cell lines at a concentration of 163 ug/mL
MC-38 [32] = assay: Selectivity was evaluated against Murine tumor ZC38 colon adenocarcinoma cell lines- ZL1210 lymphocytic leukemia cell lines at a concentration of 163 ug/mL; conditions: Mus musculus
L1210 [33] = assay: Selectivity was evaluated murine tumor against ZL1210 lymphocytic leukemia cell lines- ZCFU-GM normal bone marrow cell lines at a concentration of 163 ug/mL; conditions: Mus musculus
NCI-H125 [34] = assay: Selectivity was evaluated against human ZH125 lung non small cell carcinoma cell lines-CEM lymphocytic leukemia cell lines at a concentration of 163 ug/mL
colon [35] = assay: Selectivity was evaluated against human ZH116 colon cell lines-CEM lymphocytic leukemia cell lines at a concentration of 175 ug/mL
MC-38 [36] = assay: Selectivity was evaluated against murine tumor ZC38 colon adenocarcinoma cell lines- ZCFU-GM normal bone marrow cell lines at a concentration of 175 ug/mL; conditions: Mus musculus
MC-38 [37] = assay: Selectivity was evaluated against Murine tumor ZC38 colon adenocarcinoma cell lines- ZL1210 lymphocytic leukemia cell lines at a concentration of 175 ug/mL; conditions: Mus musculus
NCI-H125 [38] = assay: Selectivity was evaluated against human ZH125 lung non small cell carcinoma cell lines-CEM lymphocytic leukemia cell lines at a concentration of 175 ug/mL
L1210 [39] = assay: Selectivity was evaluated murine tumor against ZL1210 lymphocytic leukemia cell lines- ZCFU-GM normal bone marrow cell lines at a concentration of 175 ug/mL; conditions: Mus musculus
colon [40] = assay: Selectivity was evaluated against human ZH116 colon cell lines-CEM lymphocytic leukemia cell lines at a concentration of 30 ug/mL
MC-38 [41] = assay: Selectivity was evaluated against Murine tumor ZC38 colon adenocarcinoma cell lines- ZL1210 lymphocytic leukemia cell lines at a concentration of 30 ug/mL; conditions: Mus musculus
MC-38 [42] = assay: Selectivity was evaluated against murine tumor ZC38 colon adenocarcinoma cell lines- ZCFU-GM normal bone marrow cell lines at a concentration of 30 ug/mL; conditions: Mus musculus
NCI-H125 [43] = assay: Selectivity was evaluated against human ZH125 lung non small cell carcinoma cell lines-CEM lymphocytic leukemia cell lines at a concentration of 30 ug/mL
L1210 [44] = assay: Selectivity was evaluated murine tumor against ZL1210 lymphocytic leukemia cell lines- ZCFU-GM normal bone marrow cell lines at a concentration of 30 ug/mL; conditions: Mus musculus

## CC1=C[C@H]2O[C@@H]3[C@H](O)[C@H]4OC(=O)/C=C\C=C\[C@H]([C@@H](C)O)OCC/C(C)=C/C(=O)OC[C@@]2(CC1)[C@]4(C)[C@]31CO1
L1210 [1]
  Selectivity: 250 zone unit
MC-38 [2]
  Selectivity: -50 zone unit
NCI-H125 [3]
  Selectivity: 50 zone unit
MC-38 [4]
  Selectivity: -300 zone unit
Colon [5]
  Selectivity: 0 zone unit
Homo sapiens
  Relative activity: 392

## CC1=C[C@H]2O[C@@H]3C[C@H]4OC(=O)/C=C\C=C\[C@H]([C@H](C)O)OCC/C(C)=C/C(=O)OC[C@@]2(CC1)[C@]4(C)[C@]31CO1
MC-38 [6]
  Selectivity: -550 zone unit
L1210 [7]
  Selectivity: 550 zone unit
NCI-H125 [8]
  Selectivity: > -150 zone unit
Homo sapiens
  Relative activity: 256
Colon [9]
  Selectivity: > -150 zone unit
MC-38 [10]
  Selectivity: 0 zone unit

## CC1=C[C@H]2O[C@@H]3C[C@H]4OC(=O)/C=C\C=C\[C@H]([C@H](C)O)OCC[C@@H](C)[C@H](O)C(=O)OC[C@@]2(CC1)[C@]4(C)[C@]31CO1 [(6'R,13'S) ISORORIDIN A]
L1210 [11]
  Selectivity: 450 zone unit
MC-38 [12]
  Selectivity: -500 zone unit
Colon [13]
  Selectivity: -150 zone unit
NCI-H125 [14]
  Selectivity: -150 zone unit
Homo sapiens
  Relative activity: 1070
MC-38 [15]
  Selectivity: -50 zone unit

## CC1=C[C@H]2O[C@@H]3C[C@H]4OC(=O)/C=C\C=C\[C@H]([C@@H](C)O)OCC[C@@H](C)[C@H](O)C(=O)OC[C@@]2(CC1)[C@]4(C)[C@]31CO1 [RORIDIN A]
NCI-H125 [16]
  Selectivity: -150 zone unit
MC-38 [17]
  Selectivity: 50 zone unit
L1210 [18]
  Selectivity: 350 zone unit
Homo sapiens
  Relative activity: 703
MC-38 [19]
  Selectivity: -300 zone unit
Colon [20]
  Selectivity: -100 zone unit

## CC1=C[C@H]2O[C@@H]3[C@H](O)[C@H]4OC(=O)/C=C\C=C\[C@H]([C@H](C)O)OCC/C(C)=C/C(=O)OC[C@@]2(CC1)[C@]4(C)[C@]31CO1 [RORIDIN L]
MC-38 [21]
  Selectivity: 0 zone unit
L1210 [22]
  Selectivity: 400 zone unit
MC-38 [23]
  Selectivity: -400 zone unit
Homo sapiens
  Relative activity: 632
Colon [24]
  Selectivity: -100 zone unit
NCI-H125 [25]
  Selectivity: -50 zone unit

## CC1=C[C@H]2O[C@@H]3[C@H](O)[C@H]4OC(=O)/C=C\C=C\[C@@H]5O[C@H](C/C(C)=C/C(=O)OC[C@@]2(CC1)[C@]4(C)[C@]31CO1)O[C@H]5C [RORIDIN M]
L1210 [26]
  Selectivity: 100 zone unit
MC-38 [27]
  Selectivity: 100 zone unit
NCI-H125 [28]
  Selectivity: -100 zone unit
Colon [29]
  Selectivity: -150 zone unit
Homo sapiens
  Relative activity: 14

## CC1=C[C@H]2OC3C[C@@H](OC(=O)/C=C\C=C\[C@H](O)[C@H](C)O)[C@](C)([C@@]2(COC(=O)/C=C(\C)CCO)CC1)[C@]31CO1 [TRICHOVERRIN A]
MC-38 [30]
  Selectivity: -200 zone unit
Colon [31]
  Selectivity: -50 zone unit
MC-38 [32]
  Selectivity: -500 zone unit
L1210 [33]
  Selectivity: 300 zone unit
Homo sapiens
  Relative activity: 3
NCI-H125 [34]
  Selectivity: -100 zone unit

## CC1=C[C@H]2OC3C[C@@H](OC(=O)/C=C\C=C\[C@H](O)[C@@H](C)O)[C@](C)([C@@]2(COC(=O)/C=C(\C)CCO)CC1)[C@]31CO1 [TRICHOVERRIN B]
Colon [35]
  Selectivity: -150 zone unit
MC-38 [36]
  Selectivity: 300 zone unit
MC-38 [37]
  Selectivity: -300 zone unit
Homo sapiens
  Relative activity: 6
NCI-H125 [38]
  Selectivity: -100 zone unit
L1210 [39]
  Selectivity: 600 zone unit

## CC1=C[C@H]2O[C@@H]3C[C@H]4OC(=O)/C=C\C=C\C(=O)OCC[C@@H](C)[C@H](O)C(=O)OC[C@@]2(CC1)[C@]4(C)[C@]31CO1 [VERRUCARIN A]
NCI-H125 [16]
  Selectivity: -200 zone unit
MC-38 [17]
  Selectivity: 50 zone unit
L1210 [18]
  Selectivity: 350 zone unit
Homo sapiens
  Relative activity: 692
MC-38 [19]
  Selectivity: -300 zone unit
Colon [20]
  Selectivity: -200 zone unit

## CC1=C[C@H]2O[C@@H]3[C@H](O)[C@H]4OC(=O)/C=C\C=C\C(=O)OCC/C(C)=C/C(=O)OC[C@@]2(CC1)[C@]4(C)[C@]31CO1 [VERRUCARRIN M]
Colon [40]
  Selectivity: -50 zone unit
MC-38 [41]
  Selectivity: 150 zone unit
MC-38 [42]
  Selectivity: -50 zone unit
NCI-H125 [43]
  Selectivity: -50 zone unit
Homo sapiens
  Relative activity: 19
L1210 [44]
  Selectivity: -200 zone unit
